Results published in article PMC6291754 (Frontiers in Microbiology, 2018).

Experiments:
[1] = biological target: A/Fukui/45/2004 (NA E119V) neuraminidase (NA) (Influenza A virus, UniProt C6ELZ0, E119V); test: fluorescence-based NA inhibition assay (NA-Fluor); type: biochemical, influenza A(H3N2) virus; settings: virus A/Fukui/45/2004 NA E119V; fold-change in IC50 vs median of same subtype
[2] = biological target: A/Kagoshima/2/2012 (NA R292K) neuraminidase (NA) (Influenza A virus, UniProt J9TKI7, R292K); test: fluorescence-based NA inhibition assay (NA-Fluor); type: biochemical, influenza A(H3N2) virus; settings: virus A/Kagoshima/2/2012 NA R292K; fold-change in IC50 vs median of same subtype

For `CC(=O)N[C@H]1[C@H]([C@H](O)[C@H](O)CO)OC(C(=O)O)=C[C@@H]1N=C(N)N` [Zanamivir, zanamivir], the “NA inhibitor susceptibility (WHO criteria)” value [1] was 0.5 ± 0.1 NI and the “NA inhibitor susceptibility (WHO criteria)” value [2] was 10.9 ± 0.8 RI (Reduced inhibition (RI) is defined as a 10- to 100-fold increase in IC50 for influenza A viruses).
